Test results from patent EP0341019A2, “Polyether antibiotic” (priority 1988, dated 1989).
Converted amounts (≈) assume the structure as drawn.

Tested on: Staphylococcus aureus S13E
Assay: microbe, parasite or virus in culture

For `CC[C@@H](O)[C@]1(C)C[C@H](C)[C@@](O)([C@H]2C[C@H](C)[C@H]([C@]3(C)C[C@@H](O[C@H]4CC[C@H](OC)[C@@H](C)O4)[C@H]([C@]4(C)CC[C@@]5(O[C@H]([C@@H](C)[C@@H](OC)[C@H](C)C(=O)O)[C@H](C)[C@@H](OC)[C@H]5C)O4)O3)O2)O1` [Example A82810], the MIC was 1 µg/mL (≈ 1.19 µM).
